A mixed list of measured activities; the numbers were collected in NIAID ChemDB.

All rows: cytotoxicity tests; cell line: MT-4; endpoint: CC50

CCn: concentration that lowers growth or viability of the cells by n%. Blank or dashed fields: not listed here. Two numbers with a dash give a range or band. Neighbouring rows are from separate reports.

structure	method	result
Cc1ccnc2c1NC(=O)c1cccnc1N2C1CC1	MTT	683 µM
O=C1O[C@H]2[C@@H]3OC(=O)c4cc(O)c(O)c(O)c4-c4c(cc(O)c(O)c4O)C(=O)OC[C@H]2O[C@@H](OC(=O)c2cc(O)c(O)c(O)c2)[C@@H]3OC(=O)c2cc(O)c(O)c3c2[C@@H]2C1=CC(=O)[C@](O)(O3)C2(O)O	XTT	14.2 µM
NC(N)=NCCC[C@H](N)C(=O)NC[C@@H]1OC(O[C@H]2[C@@H](O)[C@H](O[C@@H]3[C@@H](O)[C@H](NC(=O)[C@@H](N)CCCN=C(N)N)C[C@H](NC(=O)[C@@H](N)CCCN=C(N)N)[C@H]3O[C@H]3O[C@H](CNC(=O)[C@@H](N)CCCN=C(N)N)[C@@H](O)[C@H](O)[C@H]3NC(=O)[C@@H](N)CCCN=C(N)N)O[C@@H]2CO)[C@H](NC(=O)[C@@H](N)CCCN=C(N)N)[C@@H](O)[C@@H]1O		>55 µM
Nc1nc(N)c2ncn(C[C@H](CF)OCP(=O)(O)O)c2n1		>100 µg/mL
C[C@]1(CO)O[C@@H](n2ccc(N)nc2=O)C[C@@H]1O	MTT	0.062 µM
Cc1cn([C@@H]2O[C@H](CO)C3(OS(=O)(=O)C=C3N)[C@H]2O)c(=O)[nH]c1=O		>300 µM
Cc1cn([C@H]2C[C@H](N=[N+]=[N-])[C@@H](CO)O2)c(=O)[nH]c1=O	MTT	>7.48 µM
Cc1cc(/C=C/C#N)cc(C)c1Oc1ccnc(S(=O)(=O)CC(=O)Nc2ccc(F)cc2)n1	MTT	19.5 µM
O=S(=O)(O)c1cc(O)c2c(NS(=O)(=O)c3ccc(-c4ccc(S(=O)(=O)Nc5cc(S(=O)(=O)O)cc6cc(S(=O)(=O)O)cc(O)c56)cc4)cc3)cc(S(=O)(=O)O)cc2c1		320 µM
CCc1c(Cc2cc(C)cc(C)c2)n(COCC#Cc2ccc(COCn3c(Cc4cc(C)cc(C)c4)c(CC)c(=O)[nH]c3=O)cc2)c(=O)[nH]c1=O	MTT	16 µM
O=C1Nc2c(C(F)(F)F)ccnc2N(C2CC2)c2ncccc21		>200 µM
O=S1(=O)c2ccccc2-n2cncc2-c2cccn21		85 µM
O=C1N(Cc2ccccc2)c2cscc2S(=O)(=O)N1Cc1ccccc1		510 µM
COc1ccc(CN[C@@H](C(=O)N[C@H](C(=O)NCc2nc3ccccc3[nH]2)C(C)C)[C@H](O)[C@H](Cc2ccccc2)NC(=O)[C@@H](NC(=O)[C@@](C)(O)c2ccccc2)C(C)(C)C)cc1		9.3 µM
C/C=C/CN1C(=O)c2cccn2S(=O)(=O)c2ccccc21		52 µM
Cc1cn([C@H]2C[C@H](N=[N+]=[N-])[C@@H](CO)O2)c(=O)[nH]c1=O		3.2 µM
Nc1ncnc2c1ncn2CCOCP(=O)(O)O	absorbance	>227 µM
Nc1nc(N)c2ncn(CCOCP(=O)(O)O)c2n1		6 µg/mL
O=c1ccn([C@H]2C=C[C@@H](CO)O2)c(=O)[nH]1		27 µM
Cc1cn([C@H]2C[C@H](N=[N+]=[N-])[C@@H](CO)O2)c(=O)[nH]c1=O		201 µM
Cc1cc(-c2ccc(C#N)cc2)cc(C)c1Oc1ccnc(S(=O)(=O)CC(=O)Nc2ccc(C#N)cc2)n1	MTT	24.44 µg/mL
O=C(CCCCCCCCCCC(=O)Nc1cc(S(=O)(=O)O)cc2cc(S(=O)(=O)O)cc(O)c12)Nc1cc(S(=O)(=O)O)cc2cc(S(=O)(=O)O)cc(O)c12		430 µM
Nc1ncc2ncn(CCOCP(=O)(O)O)c2n1		>396 µg/mL
Cc1cc(-c2ccc(C#N)cc2)cc(C)c1Oc1ccnc(S(=O)(=O)CC(=O)NCc2ccc(Br)cc2)n1	MTT	3.57 µM
O=C(/C=C/c1ccc(O)c(O)c1)c1ccc(O)cc1O		3.3 µM
Cc1cn([C@H]2C[C@H](N=[N+]=[N-])[C@@H](CO)O2)c(=O)[nH]c1=O		>93.5 µM
CCc1c(Cc2cc(C)cc(C)c2)n(COCc2cn([C@H]3CC(n4cc(C)c(=O)[nH]c4=O)OC3CO)nn2)c(=O)[nH]c1=O	MTT	>100 µM
Cc1cn([C@H]2C[C@H](N=[N+]=[N-])[C@@H](CO)O2)c(=O)[nH]c1=O		215 µM
Cc1cn([C@H]2C[C@H](N=[N+]=[N-])[C@@H](CO)O2)c(=O)[nH]c1=O		27–250 µM
O=C1CN=C(c2ccc[nH]2)c2cc(Cl)ccc2N1		3.5 µM
Cn1ncc2c1S(=O)(=O)N(CCc1ccccc1)C(=O)N2CCC#N	MTT	≥209.4 µM
CC(C)[C@H](NC(=O)OCc1ccccc1)C(=O)N[C@@H](Cc1ccccc1)[C@@H](O)[C@@H](NCc1ccc(Cl)cc1)C(=O)N[C@H](C(=O)NCc1nc2ccccc2[nH]1)C(C)C		9.9 µM
Cc1cn([C@H]2C[C@H](N=[N+]=[N-])[C@@H](CO)O2)c(=O)[nH]c1=O	MTT	35.6 µM
Nc1ncnc2c1ncn2[C@H]1CC[C@@H](CO)O1		>250 µM
CN1C(=O)N(Cc2ccccc2)S(=O)(=O)c2cscc21		690 µM
C=C(C)[C@]12C[C@@H](COC(=O)c3ccccc3)[C@@]34O[C@]5(O[C@@H]1[C@@H]3[C@@H]1O[C@]1(CO)[C@@H](O)[C@@]1(O)[C@H]4[C@H]([C@H](C)[C@@H]1OC(=O)c1ccccc1)[C@H](C)CCCCCC[C@H]5O)O2	luminescence	>2.5 µM
C[C@@H](Cn1cnc2c(N)nc(N)nc21)OCP(=O)(O)O		>100 µg/mL
c1cc(CN2CCCNCCNCCCNCC2)ccc1CN1CCCNCCNCCCNCC1		>500 µg/mL
Cc1cn([C@H]2C[C@H](N=[N+]=[N-])[C@@H](CO)O2)c(=O)[nH]c1=O		80 µM
O=S1(=O)c2ccccc2NCc2cccn21		129 µM
Cc1cc(C#N)cc(C)c1Oc1nc(Nc2ccc(C#N)cc2)nc(N)c1Br	MTT	>4.61 µM
C#CCOCn1c(Cc2ccccc2C)c(CC)c(=O)[nH]c1=O	MTT	33 µM
Cc1cn([C@H]2C[C@H](N=[N+]=[N-])[C@@H](CO)[Se]2)c(=O)[nH]c1=O		>100 µM
C=C(C)[C@]12C[C@@H](COC(=O)c3ccccc3)[C@@]34OC5(O[C@@H]1[C@@H]3[C@@H]1O[C@]1(CO)[C@@H](O)[C@@]1(O)[C@H]4[C@H]([C@H](C)[C@@H]1OC(=O)c1ccccc1)[C@H](C)CCCCCC[C@H]5O)O2	luminescence	>0.025 µM
CNC(C)[C@H]1O[C@H](O[C@@H]2[C@@H](O)[C@H](O[C@@H]3OC[C@@](C)(O)[C@@H](NC)[C@@H]3O)[C@@H](NC(=O)[C@@H](N)CCCN=C(N)N)C[C@H]2NC(=O)[C@@H](N)CCCN=C(N)N)[C@H](NC(=O)[C@@H](N)CCCN=C(N)N)[C@@H](O)[C@@H]1O		>90 µM
FC(F)(F)c1ccnc2c1NC(=NC1CC1)c1cccnc1N2C1CC1		>200 µM
CCc1c(Cc2cc(C)cc(C)c2)n(COCC#Cc2ccc(I)cc2)c(=O)[nH]c1=O	MTT	44 µM
Cc1cn([C@H]2C=C[C@@H](CO)O2)c(=O)[nH]c1=O		1.2 µM
Cc1cn([C@H]2C[C@H](N=[N+]=[N-])[C@@H](COP(=O)(O)O)O2)c(=O)[nH]c1=O		>100 µM
CC(C)(C)[Si](C)(C)OC[C@H]1O[C@@H](n2ccc(=O)[nH]c2=O)[C@H](O[Si](C)(C)C(C)(C)C)C12OS(=O)(=O)C=C2N		14.4 µM
CCc1c(Cc2cc(C)cc(C)c2)n(COCc2ccc(C#CC3(O)CCC4C5CCC6=CC(=O)CCC6C5CCC43CC)cc2)c(=O)[nH]c1=O	MTT	>100 µM
CCN1C(=O)c2cccn2S(=O)(=O)c2ccc(Cl)cc21		>300 µM
Nc1ncnc2c1ncn2[C@@H]1O[C@H](CO)[C@H]1CO		>30 µM
COC(=O)N[C@@H](Cc1c[nH]c2ccccc12)C(=O)NCCCC[C@@H](CO)N(CC(C)C)S(=O)(=O)c1ccc(N)cc1	MTT	40 µM
O=S(=O)(O)OCC1OC2OC3C(COS(=O)(=O)O)OC(OC4C(COS(=O)(=O)O)OC(OC5C(COS(=O)(=O)O)OC(OC6C(COS(=O)(=O)O)OC(OC7C(COS(=O)(=O)O)OC(OC8C(COS(=O)(=O)O)OC(OC1C(OS(=O)(=O)O)C2OS(=O)(=O)O)C(OS(=O)(=O)O)C8OS(=O)(=O)O)C(OS(=O)(=O)O)C7OS(=O)(=O)O)C(OS(=O)(=O)O)C6OS(=O)(=O)O)C(OS(=O)(=O)O)C5OS(=O)(=O)O)C(OS(=O)(=O)O)C4OS(=O)(=O)O)C(OS(=O)(=O)O)C3OS(=O)(=O)O		>500 µg/mL
Cc1cn([C@@H]2C=CC3(CO)C[C@@H]23)c(=O)[nH]c1=O		100 µg/mL
C=C(C)[C@]12C[C@@H](COC(C)=O)[C@@]34OC5(O[C@@H]1[C@@H]3[C@@H]1O[C@]1(CO)[C@@H](O)[C@@]1(O)[C@H]4[C@H]([C@H](C)[C@@H]1OC(=O)c1ccccc1)[C@H](C)CC(OC(=O)c1ccccc1)C(OC(=O)c1ccccc1)CCC[C@H]5O)O2	luminescence	>0.025 µM
COc1ccc(CN[C@@H](C(=O)N[C@H](C(=O)NCc2nc3ccccc3[nH]2)C(C)C)[C@H](O)[C@H](Cc2ccccc2)NC(=O)[C@@H](NC(=O)OCc2ccccc2)C(C)(C)C)cc1		12.1 µM
Nc1ncnc2c1ncn2CCOCP(=O)(O)O		>70 µM
CC(C)CN(C[C@@H](O)[C@H](Cc1ccccc1)NC(=O)O[C@H]1CCOC1)S(=O)(=O)c1ccc(N)cc1	MTT	>100 µM
C#CCOCn1c(Cc2cc(C)cc(C)c2)c(CC)c(=O)[nH]c1=O	MTT	>100 µM
COC(=O)[C@H](C)NP(=O)(OC[C@H]1O[C@@H](n2cc(C)c(=O)[nH]c2=O)CC1N=[N+]=[N-])Oc1ccccc1	MTT	107.6 µM
Cn1ncc2c1S(=O)(=O)N(CCc1ccccc1)C(=O)N2CCc1ccc(Br)cc1	MTT	54.7 µM
Cc1ccnc2c1NC(=O)c1cccnc1N2C1CC1		683 µM
COc1ccc(CN[C@@H](C(=O)N[C@H](C(=O)NCc2nc3ccccc3[nH]2)C(C)C)[C@H](O)[C@H](Cc2ccccc2)NC(=O)[C@@H](NC(=O)CCc2ccc(O)cc2)C(C)(C)C)cc1		17.1 µM
Cc1cc(-c2ccc(C#N)cc2)cc(C)c1Oc1ccnc(S(=O)(=O)CC(=O)NC(C)c2ccc(Cl)cc2)n1	MTT	3.82 µM
C/C(Cn1cnc2c(N)ncnc21)=N\OCP(=O)(O)O	absorbance	>1000 µM

For reference, 7 entries again:

Cc1cn([C@H]2C[C@H](N=[N+]=[N-])[C@@H](CO)O2)c(=O)[nH]c1=O ; result: 27–250 µM
Nc1nc(N)c2ncn(CCOCP(=O)(O)O)c2n1 ; result: 6 µg/mL
C/C(Cn1cnc2c(N)ncnc21)=N\OCP(=O)(O)O ; method: absorbance ; result: >1000 µM
c1cc(CN2CCCNCCNCCCNCC2)ccc1CN1CCCNCCNCCCNCC1 ; result: >500 µg/mL
Cc1cn([C@H]2C[C@H](N=[N+]=[N-])[C@@H](CO)O2)c(=O)[nH]c1=O ; method: MTT ; result: >7.48 µM
CNC(C)[C@H]1O[C@H](O[C@@H]2[C@@H](O)[C@H](O[C@@H]3OC[C@@](C)(O)[C@@H](NC)[C@@H]3O)[C@@H](NC(=O)[C@@H](N)CCCN=C(N)N)C[C@H]2NC(=O)[C@@H](N)CCCN=C(N)N)[C@H](NC(=O)[C@@H](N)CCCN=C(N)N)[C@@H](O)[C@@H]1O ; result: >90 µM
C/C=C/CN1C(=O)c2cccn2S(=O)(=O)c2ccccc21 ; result: 52 µM